{"source": "PubChem BioAssay AID504761 | Drosophila RNAi Screening Center, 2011", "screen": "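Fly genes whose silencing reduces dengue virus type 2 infection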 (primary screen)", "cells": "D.Mel-2 cells from Drosophila", "reagents": "long dsRNA against Drosophila genes", "challenge": "infection with dengue virus type 2; dose and infection time not stated", "detection": "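Cells stained for dengue envelope protein and imaged; percent of infected cells per well on duplicate plates, ranked by infection, with stained nuclei counted for cell number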", "reading the numbers": "infection score: higher = more virus-infected cells; cell count: higher = more cells in the well", "hit rule": "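Very low infection ranking in both replicate wells (chance probability at most 0.065), then a retest showing infection dropped 1.5-fold or more at p below 0.05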", "calls": "active = confirmed: knock-down lowers infection; inactive = not picked or not confirmed", "note": "The deposit covers about 22,000 reagents; this is a random part of those with a known target gene and a result. In the full data, 116 (0.52%) got an active call. 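Calls depend on retest data that are not deposited; infection was ranked per plate without normalising between plates; the unit of the infection score is not given.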 Raw values vary from plate to plate and are shown uncorrected. Not all columns of the deposit are shown. The record does not give: the amount of reagent, the time to read-out."}
{"Gene": "CG16734", "amplicon": "DRSC15143", "infection score, replicate 1": 4.19, "cell count, replicate 1": 6728, "outcome": "inactive"}
{"Gene": "CG6503", "amplicon": "DRSC16056", "infection score, replicate 1": 5.04, "cell count, replicate 1": 1349, "outcome": "inactive"}
{"Gene": "CG6503", "amplicon": "DRSC29619", "infection score, replicate 1": 21.9, "cell count, replicate 1": 4273, "outcome": "inactive"}
{"Gene": "CG12851", "amplicon": "DRSC04131", "infection score, replicate 1": 6.87, "cell count, replicate 1": 990, "outcome": "inactive"}
{"Gene": "CG32444", "amplicon": "DRSC11677", "infection score, replicate 1": 5.73, "cell count, replicate 1": 6894, "outcome": "inactive"}
{"Gene": "GluRIIA (Glutamate receptor IIA)", "amplicon": "DRSC03334", "infection score, replicate 1": 3.15, "cell count, replicate 1": 6248, "outcome": "inactive"}
{"Gene": "CG8944", "amplicon": "DRSC20128", "infection score, replicate 1": 9.87, "cell count, replicate 1": 5878, "outcome": "inactive"}
{"Gene": "CG8944", "amplicon": "DRSC21342", "infection score, replicate 1": 4.36, "cell count, replicate 1": 5533, "outcome": "inactive"}
{"Gene": "CG8944", "amplicon": "DRSC23741", "infection score, replicate 1": 30.7, "cell count, replicate 1": 6197, "outcome": "inactive"}
{"Gene": "CG15676", "amplicon": "DRSC04267", "infection score, replicate 1": 7.35, "cell count, replicate 1": 6464, "outcome": "inactive"}
{"Gene": "CG15676", "amplicon": "DRSC27015", "infection score, replicate 1": 4.23, "cell count, replicate 1": 6045, "outcome": "inactive"}
{"Gene": "CG32983", "amplicon": "DRSC22367", "infection score, replicate 1": 2.86, "cell count, replicate 1": 6325, "outcome": "inactive"}
{"Gene": "CG2444", "amplicon": "DRSC19846", "infection score, replicate 1": 2.39, "cell count, replicate 1": 6201, "outcome": "inactive"}
{"Gene": "CG5386", "amplicon": "DRSC25017", "infection score, replicate 1": 4.37, "cell count, replicate 1": 6549, "outcome": "inactive"}

Next part, starting with the last 3 of the part before.
{"Gene": "CG32983", "amplicon": "DRSC22367", "infection score, replicate 1": 2.86, "cell count, replicate 1": 6325, "outcome": "inactive"}
{"Gene": "CG2444", "amplicon": "DRSC19846", "infection score, replicate 1": 2.39, "cell count, replicate 1": 6201, "outcome": "inactive"}
{"Gene": "CG5386", "amplicon": "DRSC25017", "infection score, replicate 1": 4.37, "cell count, replicate 1": 6549, "outcome": "inactive"}
{"Gene": "CG32544", "amplicon": "DRSC20033", "infection score, replicate 1": 4.44, "cell count, replicate 1": 5834, "outcome": "inactive"}
{"Gene": "CG32544", "amplicon": "DRSC25570", "infection score, replicate 1": 10.2, "cell count, replicate 1": 6860, "outcome": "inactive"}
{"Gene": "CG34253", "amplicon": "DRSC09531", "infection score, replicate 1": 3.12, "cell count, replicate 1": 5479, "outcome": "inactive"}
{"Gene": "Targ (Tarag)", "amplicon": "DRSC06206", "infection score, replicate 1": 4.48, "cell count, replicate 1": 6713, "outcome": "inactive"}
{"Gene": "Tnpo (Transportin)", "amplicon": "DRSC11309", "infection score, replicate 1": 9.32, "cell count, replicate 1": 5247, "outcome": "inactive"}
{"Gene": "Tnpo (Transportin)", "amplicon": "DRSC25104", "infection score, replicate 1": 3.26, "cell count, replicate 1": 6079, "outcome": "inactive"}
{"Gene": "CG17786", "amplicon": "DRSC15270", "infection score, replicate 1": 8.03, "cell count, replicate 1": 4709, "outcome": "inactive"}
{"Gene": "CG17786", "amplicon": "DRSC25378", "infection score, replicate 1": 4.1, "cell count, replicate 1": 6271, "outcome": "inactive"}
{"Gene": "CG13510", "amplicon": "DRSC04152", "infection score, replicate 1": 7.94, "cell count, replicate 1": 6084, "outcome": "inactive"}
{"Gene": "CG5653", "amplicon": "DRSC10534", "infection score, replicate 1": 1.58, "cell count, replicate 1": 6627, "outcome": "inactive"}
{"Gene": "CG5653", "amplicon": "DRSC29858", "infection score, replicate 1": 35.8, "cell count, replicate 1": 5409, "outcome": "inactive"}
{"Gene": "Pi3K59F (Phosphatidylinositol 3-kinase 59F)", "amplicon": "DRSC04640", "infection score, replicate 1": 6.19, "cell count, replicate 1": 6102, "outcome": "inactive"}
{"Gene": "Pi3K59F (Phosphatidylinositol 3-kinase 59F)", "amplicon": "DRSC28890", "infection score, replicate 1": 10.4, "cell count, replicate 1": 3689, "outcome": "inactive"}
